Data on 2 molecules can be found in article PMC12714728 (npj Viruses, 2025).

Test [1] addresses T1, hemagglutinin (HA) ectodomain of A/Vietnam/1203/2004 (H5N1) (influenza A virus A/Vietnam/1203/2004 …, biotin on the BirA site). Particulars: both partners purified.
Test [2] deals with T2, hemagglutinin (HA) ectodomain of A/New Caledonia/20/1999 (H1N1) (influenza A virus A/New …, biotin on the BirA site). The test is described as follows: AlphaScreen or HTRF. Particulars: both partners purified.
Test [3] deals with T2, hemagglutinin (HA) ectodomain of A/New …. Put plainly: cell-based or functional assay.
Test [4] deals with H1/Bri HA, A/Brisbane/59/07 (H1N1) hemagglutinin, C-terminally biotinylated, for the CCI assay (influenza A virus A/Brisbane/59/07 …, C-terminal biotin). Put plainly: cell-based or functional assay.
For test [5], the target named is T1, hemagglutinin (HA) ectodomain of …. Particulars: both partners purified. This is another data set of the same source.

B1: cyclic peptide CP9 (peptide)
peptide: CLYEDPLGVAGGMGC
modifications: disulfide between the two Cys (sidechain-sidechain cyclization)
Usually IC50 stands for the concentration needed to halve the response being measured. A low value points to inhibition by little substance. Consider B1, for which the IC50 in test [1] turned out to be 5.59 µM; in test [2], 700 nM. In addition, the “virus neutralization assay (VNA) EC50, H1/NCa virus” value in test [3] turned out to be 0.82 µM. In addition, in test [4], the “conformational change inhibition assay (CCI) IC50” value worked out at 0.23 µM.

B2: cyclic peptide CP10 (peptide)
peptide: CLYRDPLGVAGEMGC
modifications: disulfide between the two Cys (sidechain-sidechain cyclization)
The koff is a measure of how fast the partners let go of each other. As for B2, in test [5], the off-rate (koff) stood at 0.746 s⁻¹. Further, the 50% inhibitory concentration (IC50) is 7.61 µM in test [1] and 2930 nM in test [2]. Besides, the “virus neutralization assay (VNA) EC50, H1/NCa virus” value in test [3] is 88.3 µM. In test [4], the “conformational change inhibition assay (CCI) IC50” value turned out to be 0.46 µM.
